# Results taken from the supplement of paper PMC9931576.
# Human monoclonal antibodies against the spike receptor-binding domain (heavy:light variable regions). IC50 against pseudoviruses bearing the spike of naturally observed variants; lower = stronger; >10 µg/ml means not reached at the top dose. No active / inactive call. The stated detection limit is 0.0005 µg/ml; values near or below 0.001 µg/ml lie at the floor of the assay.
# B1: BD56-1926 (protein)
# chain 1: QDQLVQSGAAVRKPGSSAKVSCKASGGTFSNYAISWVRQAPGLGLEWLGRTIPILDITNYAQKFQGRVTLTADKSTTTAYMELSSLRSDDTAVYYCARHLYDYGDYLLDYYVMDVWGQGTTVTVSS
# chain 2: DIQMTQSPSTLSASVGDRVTITCRASQNINSWLAWYQQKPGKAPKLLIYKASTLESGVPSTFSGSGSGTEFTLTISSLQPDDFATYYCQQYNSSSPFGQGTKVEFK
# B2: BD56-1924 (protein)
# chain 1: QVQLVQSGAEVKPPGASVKVSCKASGYTFTGYYMFWVRQAPGQGLEWMGRINPNSGGTNYAQKFQGRVTMTRDTSISTAYMELSRLRSDDTAVYYCARELGRSVIAWYGGLEDYWGQGTLVTVSS
# chain 2: EIVMTQSPATLSVSPGERATLSCRASQSVSINLAWYQQKPGQAPRLLIYGAATRATGIPGRFSGSGSGTEFTLTISSLQSEDFAVYYCLQYNDRPPWTFGQGTKVEIK
# B3: BD56-1929 (protein)
# chain 1: QLQLQESGPGLLKPSETLSLTCTVSGGSINTNNFYWGWIRQPPGKGLEWIGNMYYSGTTHFNPSLKSRVTTSVDTSKKQFSLKLTSVTAADTAVYFCARGTTYFDRRGSRVSDPFDRWGQGTLVIVSS
# chain 2: DIQMTQSPSTLSASVGDRVTITCRASQNISTWLAWYQQKPGKAPNLLIYGASDLESGVPSRFSGSGSGTAFTLTISSLQPDDFVTYYCQHYNGYFWTFGQGTKVEIK
# B4: BD56-1902 (protein)
# chain 1: DVQLVESGGGLVQPGGSLKLSCAASGFTFSGSAMHWVRQASGKGLEWVGRVRSILHSYATAYSASLKGRFTISRDDSKNTAYLEMNSLEIEDTAVYFCCMSGYSGYDELDVWGQGTMVTVSS
# chain 2: DIQMTQSPSSLSASVGDRVTITCRASHTISNYLHWYQKKPGKAPKLLIYAASSLQSGVPSRFSGGGSGTDFTLTISSLQLEDFATYFCQQSYSTPFTFGPGTTVDIK
# B5: BD56-1903 (protein)
# chain 1: QVQLVQSGAEVKKPGSSVKVSCEASGDTFSKYAINWVRQTPGQGLEWMGRIIPMFDISNYAQKFQGRLTLTADKSTSTAYMELSGLISNDAAIYYCATSAYQYNSDGYFLQYWGQGTLVTVSS
# chain 2: EIVLAQSPGTLSLSPGERATLSCRASQNINSNFLAWYQQRPGQAPRLLIYGASSRATGIPDRFSGSGSGTEFTLTISRLESEDFAVYYCHQYHSSPRTFGQGTKVEIK
# B6: BD56-1892 (protein)
# chain 1: QVQLVQSGAEVKKPGSSVKVSCKASGDSFSNYAISWVRQAPGQGLEWVGGIIPIFRTINYGQKFQGRVTITADASTNTVYMELTSLRSEDTAVYYCARDMDFFGSGSYLSGGMDVWGQGTTVTVSS
# chain 2: DIQMTQSPSTLSASVGDRVIITCRASQSIRTDLNWYQVKPGRAPKLLIYGASSLQSGVPSRFSGSGSGTDFTLTISTLLPEDFATYYCQQSYSTLPVTFGQGTKVEIK
# B7: BD56-1918 (protein)
# chain 1: QVQLVESGGGVVQPERSLRLSCAASGFTFSIYAMHWVRQTPGKGLEWVAVISKDGGYKSSADSVKGRFTISRDNSKGTLYLQMNSLRAEDTAVYYCAREAFGAYDYYFDYWGQGTLVTVSS
# chain 2: DIQMTQSPSSLSASVGDRVTITCRASQGIRNSLAWYQQKPGKAPKLLLYAASTLESGVPSRFSGSGSGTDYTLTISSLQPEDFATYFCQQYYINPGNTFGQGTKLEIK
# B8: BD56-1894 (protein)
# chain 1: QITLKESGPTLVRPTQTLTLTCNFSGFSFISSGVGVAWIRQPPGKALEWLGIIYWDGDKRYSPALKTRLTITKETYENQVVLRMTNMDPVDTATYFCAHLVGGVWGFDPWGQGTLVTVSS
# chain 2: QSVLTQPPSASGTPGQRVTISCSGSSSNIGINYVCWYRQLPGTAPKLLIYSNDQRPSGVPDRFSGSKSGTSVSLAISGLRSEDEADYYCAAWDDSRSDWVFGGGTKLTVL
# B9: BD56-1916 (protein)
# chain 1: EVQLVESGGGLVQPGGSLRLSCAASGFIVSSNYMSWVRQAPGKGLEWVSVIYAGGSTFYADSVKGRFTISRDNSKNMLYLQLNSLRAEDTAVYYCARDYGDFYFDFWGQGTLVTVSS
# chain 2: DIQMTQSPSSLSASVGDRVTITCRASQGISNSLAWYQQKPGNAPKLLLYAASTLETGVPSRFRGSGSGTDYTLTISSLQPEDFATYYCQQYYNTPRTFGGGTKVEIK
# B10: BD56-1923 (protein)
# chain 1: QVRLQESGPGLVKPSGTLSLTCAVSGGSLNTPNWWSWVRQPPGKGLEWIGEIHHSGNTNYNPSLKTRVTISVDKSKNEISLKLNSVTAADTAMFYCTRDRGGVGDGFDMWGQGTMVTVSS
# chain 2: QSALTQPASVSGSPGQSITISCTGTSSDVGAYKYVSWYQQHPGKAPKLIIYDVSDRPSGISHRFSGSKSGNTASLTISGLQPEDEADYYCNSYTSISTRVFGSGTKVTVL
# B11: BD56-1893 (protein)
# chain 1: QVQLVQSGAEVKKPGSSVKVSCKASGGTFSNYAITWVRQAPGQGLEWMGGIIPLFGTTYYAQKFQGRVTITADESTNTAYMELSSLRSEGTAVYYCAGHPRGDCANGVCYPPNYSYYMDVWGKGTTVTVSS
# chain 2: QSALTQPASVSGSPGQSITISCTGTNSDVGIYNLVSWYQQHPGKAPKLIIYDVSKRPSGVSNRFSGSKSGNTASLTISGLQAEDESDYYCCSYAGTSTFVFGTGTKVTVL
# B12: BD56-1896 (protein)
# chain 1: EVQLVESGGGLVQPGGSLRLSCAASGFIFSDYEMNWVRQAQGKGLEWISYISTSGGATNYADSVKGRFTISRDNAKNSLYLQMNSLGAEDTAIYYCARAIYGSGSSTSDCWGQGTLVTVSS
# chain 2: DIQMTQSPSSLSASVGDRVTITCRASQNMNNFLNWYQQKPGKAPKLLIYATSTLQSGVPSRFSGSGSGTDFTLTISNLQPEDFATYYCQQSYSLPVTFGQGTRLEIK
# Target: SARS-CoV-2 Omicron BA.1 spike pseudovirus
# Assay: pseudovirus neutralization IC50; higher = weaker neutralization
# Protocol: (§1)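 Single-round VSV luciferase pseudovirus mixed with antibody dilutions for 1 h and put on Huh-7 cells for about a day; IC50 from the dose curve.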
row,Binder,pseudovirus neutralization IC50
1,B1,0.0354 µg/mL
2,B2,1.53 µg/mL
3,B3,> 10 µg/mL
4,B4,> 10 µg/mL
5,B5,0.0124 µg/mL
6,B6,0.843 µg/mL
7,B7,3.99 µg/mL
8,B8,0.00112 µg/mL
9,B9,> 10 µg/mL
10,B10,> 10 µg/mL
11,B11,0.00753 µg/mL
12,B12,0.00217 µg/mL

# Target: SARS-CoV-2 Omicron BA.2 spike pseudovirus
# Assay: as above
# Protocol: as §1
row,Binder,pseudovirus neutralization IC50
1,B1,0.0476 µg/mL
2,B2,2.22 µg/mL
3,B3,> 10 µg/mL
4,B4,> 10 µg/mL
5,B5,0.0159 µg/mL
6,B6,0.0476 µg/mL
7,B7,5.55 µg/mL
8,B8,0.00083 µg/mL
9,B9,> 10 µg/mL
10,B10,0.104 µg/mL
11,B11,0.00654 µg/mL
12,B12,0.00172 µg/mL

# Target: SARS-CoV-2 Omicron BA.2.75 spike pseudovirus
# Assay: as above
# Protocol: as §1
row,Binder,pseudovirus neutralization IC50
1,B1,0.0383 µg/mL
2,B2,1.2 µg/mL
3,B3,> 10 µg/mL
4,B4,> 10 µg/mL
5,B5,0.00222 µg/mL
6,B6,0.425 µg/mL
7,B7,> 10 µg/mL
8,B8,0.00121 µg/mL
9,B9,> 10 µg/mL
10,B10,> 10 µg/mL
11,B11,0.00343 µg/mL
12,B12,0.00344 µg/mL

# Target: SARS-CoV-2 Omicron BA.5 spike pseudovirus
# Assay: as above
# Protocol: as §1
row,Binder,pseudovirus neutralization IC50
1,B1,0.0208 µg/mL
2,B2,> 10 µg/mL
3,B3,> 10 µg/mL
4,B4,> 10 µg/mL
5,B5,> 10 µg/mL
6,B6,> 10 µg/mL
7,B7,> 10 µg/mL
8,B8,0.000649 µg/mL
9,B9,> 10 µg/mL
10,B10,0.0402 µg/mL
11,B11,> 10 µg/mL
12,B12,> 10 µg/mL

# Target: SARS-CoV-2 Omicron BQ.1.1 spike pseudovirus
# Assay: as above
# Protocol: as §1
row,Binder,pseudovirus neutralization IC50
1,B1,0.105 µg/mL
2,B2,> 10 µg/mL
3,B3,> 10 µg/mL
4,B4,> 10 µg/mL
5,B5,> 10 µg/mL
6,B6,> 10 µg/mL
7,B7,> 10 µg/mL
8,B8,0.444 µg/mL
9,B9,> 10 µg/mL
10,B10,> 10 µg/mL
11,B11,> 10 µg/mL
12,B12,> 10 µg/mL

# Target: SARS-CoV-2 Omicron XBB spike pseudovirus
# Assay: as above
# Protocol: as §1
row,Binder,pseudovirus neutralization IC50
1,B1,0.124 µg/mL
2,B2,> 10 µg/mL
3,B3,> 10 µg/mL
4,B4,> 10 µg/mL
5,B5,> 10 µg/mL
6,B6,> 10 µg/mL
7,B7,> 10 µg/mL
8,B8,0.758 µg/mL
9,B9,> 10 µg/mL
10,B10,> 10 µg/mL
11,B11,> 10 µg/mL
12,B12,> 10 µg/mL

# Target: SARS-CoV-2 early D614G spike pseudovirus
# Assay: as above
# Protocol: as §1
row,Binder,pseudovirus neutralization IC50
1,B1,0.085 µg/mL
2,B2,0.00156 µg/mL
3,B3,0.0269 µg/mL
4,B4,0.131 µg/mL
5,B5,0.00214 µg/mL
6,B6,0.0478 µg/mL
7,B7,1.77 µg/mL
8,B8,0.0056 µg/mL
9,B9,0.0267 µg/mL
10,B10,0.0109 µg/mL
11,B11,0.00352 µg/mL
12,B12,0.00414 µg/mL
